Data as given in PubChem BioAssay AID1224833 (University of Georgia, 2016).
Here is an unselected part of about 12,000 reagents tested. Over the whole deposit, about 5,600 (46%) are marked active. 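Active calls cover z-scores past 1 in both directions, so they include lowered as well as raised rotavirus replication.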 Reagent sequences are not shown.

Purpose: 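Human genes whose knock-down alters rotavirus replication in monkey cells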 (primary screen)
Cells: monkey MA104 kidney cells
Reagent: siRNA pool against human genes, 50 nM
Duration: 48 h knock-down before infection; read 24 h after infection
Treatment: infection with rotavirus strain RV3 two days after transfection; infectious dose for this stage not given
Read-out: 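z-score of rotavirus antigen signal per well, from a fluorescent immunoassay, relative to non-targeting control wells on the same plate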
Reading the numbers: z-score vs non-targeting control: higher = more rotavirus replication than with non-targeting control
Rule for the call: In these data the active calls have z-score vs non-targeting control at about -1 or lower, or at about 1 or higher
Meaning of the calls: active = z-score beyond 1 either way; inactive = z-score within 1 of zero

target gene | z-score vs non-targeting control | activity call
LPIN3 | 0.642 | inactive
ZNF418 | -0.61 | inactive
SGO2 | -0.817 | inactive
EIF4A3 | 1.25 | active
FAM241B | -1.22 | active
ILF2 | 0.582 | inactive
SHLD2 | 0.12 | inactive
CRTC2 | -0.344 | inactive
MED1 | -0.684 | inactive
TMTC3 | -0.867 | inactive
MRPS21 | 1.08 | active
NKD1 | 0.689 | inactive
TRIM16 | 0.749 | inactive
PDE9A | -2.58 | active
TIMM17A | -1.07 | active
AHSA2P | -1.8 | active
REM1 | 0.987 | inactive
GRM7 | -0.658 | inactive
DDX51 | -0.986 | inactive
AK4 | 0.378 | inactive
LAD1 | 0.413 | inactive
HRH3 | -1.02 | active
RNF212 | 0.637 | inactive
ACAA2 | -0.567 | inactive
CD274 | 0.932 | inactive
COPZ2 | 0.544 | inactive
CENPQ | -0.519 | inactive
OTUB1 | 0.875 | inactive
PRR35 | 1.58 | active
ZNF708 | 0.111 | inactive
GTF3C1 | -0.921 | inactive
SYAP1 | 0.511 | inactive
RGMA | -1.35 | active
SCG5 | -0.577 | inactive
C2CD2L | 0.228 | inactive
CFAP65 | -0.556 | inactive
SMYD3 | -1.89 | active
SLC2A4RG | -0.657 | inactive
SERPINB7 | -1.78 | active
MS4A7 | 0.242 | inactive
FAM219B | 1.3 | active
OR5K3 | 0.177 | inactive
APTX | 1.67 | active
HRNR | -1.59 | active
ENPP4 | 0.998 | inactive
S100B | 0.454 | inactive
TMEM263 | -0.683 | inactive
NHERF1 | -1.32 | active
CD37 | -0.974 | inactive
ELN | 1.96 | active
NBN | -1.32 | active
VIRMA | 1.6 | active
KNL1 | 1.43 | active
VIT | -1.03 | active
PACSIN2 | -2.19 | active
NUB1 | -0.803 | inactive
TNIP1 | 0.756 | inactive
YAF2 | 0.899 | inactive
ZNF239 | 1.6 | active
MRPL52 | -1.74 | active
AKAP6 | -1.54 | active
SERF2 | -0.264 | inactive
SERPINA9 | -0.349 | inactive
RAB25 | 1.4 | active
SKA1 | 0.445 | inactive
CS | -0.861 | inactive
EPB41L4A | -0.244 | inactive
CNOT1 | -0.466 | inactive
SLC39A10 | -0.921 | inactive
PLEKHG3 | -1.68 | active
EGR1 | -1.64 | active
ORC1 | -1.23 | active
TMEM40 | 1.56 | active
AKNA | -2.15 | active
SCAF4 | -2.5 | active
ATP6V1F | -1.2 | active
ZNF454 | -0.244 | inactive
CD200R1 | -0.653 | inactive
MGST1 | -0.974 | inactive

Next part; the last 17 above are carried over.
target gene | z-score vs non-targeting control | activity call
SERPINA9 | -0.349 | inactive
RAB25 | 1.4 | active
SKA1 | 0.445 | inactive
CS | -0.861 | inactive
EPB41L4A | -0.244 | inactive
CNOT1 | -0.466 | inactive
SLC39A10 | -0.921 | inactive
PLEKHG3 | -1.68 | active
EGR1 | -1.64 | active
ORC1 | -1.23 | active
TMEM40 | 1.56 | active
AKNA | -2.15 | active
SCAF4 | -2.5 | active
ATP6V1F | -1.2 | active
ZNF454 | -0.244 | inactive
CD200R1 | -0.653 | inactive
MGST1 | -0.974 | inactive
MTPAP | -0.525 | inactive
ERAL1 | 1.16 | active
ANGEL1 | 0.394 | inactive
CARD6 | -2.17 | active
PLIN4 | 1.05 | active
EDARADD | -0.699 | inactive
RTN2 | 1.36 | active
AHSP | 0.185 | inactive
H4C4 | 0.197 | inactive
ACTL7B | 0.568 | inactive
RPL13A | 0.799 | inactive
TDRD5 | -1.41 | active
HMX2 | -0.0417 | inactive
RHOJ | -1.06 | active
BNIP2 | -1.49 | active
AFMID | 0.852 | inactive
CCND1 | 1.35 | active
HSPB1 | -1.1 | active
MAGEF1 | -0.559 | inactive
MYOM1 | -2.05 | active
DDAH2 | -1.19 | active
IRS4 | -1.49 | active
ADM2 | -0.382 | inactive
FGF21 | -1.77 | active
LRP10 | -0.609 | inactive
OR4L1 | -1.42 | active
PDZK1IP1 | -1.06 | active
EIF3B | -2.32 | active
CCDC28A | -1.25 | active
SPRY4 | 0.647 | inactive
SOX6 | 0.0415 | inactive
DLEC1 | 0.898 | inactive
SLC38A1 | -1.29 | active
MUC7 | -0.146 | inactive
DOK2 | -0.837 | inactive
TP53BP2 | -1.22 | active
PORCN | 1.16 | active
SMCR8 | -2.3 | active
OR2T6 | 0.227 | inactive
RPF1 | 0.337 | inactive
ZFP42 | -1.92 | active
REEP2 | -0.318 | inactive
IGF2BP2 | 1.27 | active
GPR31 | -1.23 | active
MAEL | 1.35 | active
RIC8B | 1.31 | active
LRRC34 | 1.97 | active
IRX2 | -0.676 | inactive
PCF11 | -0.988 | inactive
ARHGDIB | -0.67 | inactive
SCARB2 | -0.324 | inactive
PARP10 | -0.329 | inactive
KIR2DL4 | 1.25 | active
UBQLN1 | -1.04 | active
GSDMA | -1.89 | active
RHOF | -0.619 | inactive
CENPV | 0.671 | inactive
GLCE | -0.871 | inactive
ATP8A2 | -1.14 | active
KRTAP20-3 | 0.404 | inactive
ZNF280C | -1.18 | active
